Data as given in PubChem BioAssay AID504761 (Drosophila RNAi Screening Center, 2011).
Purpose: 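Insect host genes that dengue virus relies on to spread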 (primary screen). Cells: D.Mel-2 cells from Drosophila. Reagent: long dsRNA against Drosophila genes. Challenge: infection with dengue virus type 2; dose and infection time not stated. Read-out: 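Cells stained for dengue envelope protein and imaged; percent of infected cells per well on duplicate plates, ranked by infection, with stained nuclei counted for cell number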. Reading the numbers: infection score: higher = more virus-infected cells; cell count: higher = more cells in the well. Hit rule: 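Low infection ranks in the two replicates (chance level up to 0.065) followed by a retest with a 1.5-fold or larger significant decrease, p below 0.05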. Calls: active = confirmed: knock-down lowers infection; inactive = not picked or not confirmed.
The screen tested about 22,000 reagents; below is a random part of those with a known target gene and a result. Of all reagents, 116 (0.52%) were called active. 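Calls depend on retest data that are not deposited; infection was ranked per plate without normalising between plates; the unit of the infection score is not given.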 The raw values are shown without normalisation. A plus sign joins genes that one reagent is predicted to hit. Reagent sequences are not shown. Not stated in the record: the amount of reagent, the time to read-out.

gene | DRSC id | infection score, replicate 1 | infection score, replicate 2 | cell count, replicate 1 | cell count, replicate 2 | call
Cnx14D (GeneID 32620) | DRSC20214 | 13.9 | 15.5 | 6465 | 5425 | inactive
Cnx14D (GeneID 32620) | DRSC25425 | 11.6 | 10.3 | 6660 | 4624 | inactive
CG13930 (GeneID 38210) | DRSC08399 | 3.27 | 3.87 | 5683 | 6258 | inactive
CG13930 (GeneID 38210) | DRSC28494 | 11.3 | – | 1605 | 349 | inactive
CG17571 (GeneID 35409) | DRSC01768 | 0.53 | 0.98 | 6411 | 6237 | inactive
CG17571 (GeneID 35409) | DRSC03755 | 2.06 | 2.95 | 6833 | 6703 | inactive
CG17571 (GeneID 35409) | DRSC25111 | 9.02 | 6.47 | 5779 | 6087 | inactive
CG17110 (GeneID 42729) | DRSC15173 | 5.86 | 1.25 | 7016 | 6874 | inactive
Sbf (GeneID 41427) | DRSC16852 | 19.3 | 7.98 | 5408 | 5654 | inactive
Sbf (GeneID 41427) | DRSC27418 | 10.5 | 3.73 | 6119 | 6109 | inactive
pnut (GeneID 35801) | DRSC07666 | 4.43 | 7.97 | 5824 | 6423 | inactive
pnut (GeneID 35801) | DRSC23971 | 2.09 | 3.5 | 6320 | 6198 | inactive
Mst85C (GeneID 41089) | DRSC16746 | 4.03 | 5.46 | 6446 | 6022 | inactive
Mst85C (GeneID 41089) | DRSC26445 | 1.34 | 4.84 | 6057 | 6388 | inactive
CG12912 (GeneID 36075) | DRSC25772 | 0.76 | 1.53 | 6077 | 6474 | inactive
Tim17b1 (GeneID 40635) | DRSC12179 | 5.47 | 7.63 | 6923 | 6019 | inactive
Bulli (GeneID 38734) | DRSC10974 | 1.16 | 3.11 | 5838 | 5815 | inactive
CG12301 (GeneID 39689) | DRSC09875 | 11.1 | 15.4 | 1366 | 3007 | inactive
CG9609 (GeneID 32663) | DRSC20199 | 4.39 | 17.2 | 6334 | 6173 | inactive
CG9609 (GeneID 32663) | DRSC26952 | 14.2 | 6.79 | 6145 | 6152 | inactive
CG14329 (GeneID 42116) | DRSC14808 | 1.45 | 0.37 | 6402 | 6492 | inactive
ste24b (GeneID 36907) | DRSC07315 | 5.25 | 20.1 | 1544 | 6307 | inactive
ste24b (GeneID 36907) | DRSC24340 | 2.57 | 3.77 | 6768 | 6650 | inactive
Syx5 (GeneID 34966) | DRSC03432 | 2.15 | 7.71 | 4979 | 4799 | inactive
CG9394 (GeneID 37399) | DRSC04550 | 14.4 | 8.94 | 4720 | 1734 | inactive
CG34047 (retired record) (GeneID 3885666) | DRSC07857 | 12.2 | 20.4 | 6755 | 6541 | inactive
CG34047 (retired record) (GeneID 3885666) | DRSC21689 | 2.28 | 7.09 | 5912 | 6135 | inactive
l(2)k10201 (GeneID 48373) | DRSC06439 | 14.6 | 2.33 | 5944 | 6947 | inactive
l(2)k10201 (GeneID 48373) | DRSC07640 | 18.6 | 6.77 | 5906 | 6693 | inactive
raptor (GeneID 31543) | DRSC18359 | 5.18 | 1.52 | 6313 | 6646 | inactive
Dh44-R2 (GeneID 36368) | DRSC06141 | 30.7 | 24 | 6010 | 6596 | inactive
Dh44-R2 (GeneID 36368) | DRSC06281 | 11.1 | 8.1 | 3746 | 6669 | inactive
CG7739 (GeneID 39684) | DRSC10910 | 6.99 | 11.9 | 5881 | 5193 | inactive
CG15756 (GeneID 32308) | DRSC19721 | 4.01 | 6.35 | 5979 | 6428 | inactive
CG15756 (GeneID 32308) | DRSC24288 | 4.01 | 2.45 | 7013 | 6609 | inactive
sip1 (GeneID 44238) | DRSC03609 | 1.85 | 8.62 | 6159 | 5790 | inactive
sip1 (GeneID 44238) | DRSC22648 | 5.93 | 2.34 | 6153 | 5862 | inactive
sip1 (GeneID 44238) | DRSC27781 | 15.4 | 17.1 | 6110 | 3253 | inactive
CG12056 (GeneID 31855) | DRSC17796 | 4.98 | 2.7 | 6784 | 6678 | inactive
cal1 (GeneID 42065) | DRSC15725 | 4.29 | 12.6 | 5615 | 5740 | inactive
CG12814 (GeneID 41246) | DRSC14552 | 24.7 | 20.2 | 5982 | 5849 | inactive
CG12814 (GeneID 41246) | DRSC14553 | 2.52 | 10.5 | 6505 | 5767 | inactive
NiPp1 (GeneID 44748) | DRSC07307 | 7.5 | 16.9 | 5683 | 5293 | inactive
NC2alpha (GeneID 37471) | DRSC04059 | 6.04 | 34.6 | 6857 | 5544 | inactive
NC2alpha (GeneID 37471) | DRSC25348 | 2.8 | 1.05 | 6280 | 5975 | inactive
CG6700 (GeneID 34496) | DRSC02980 | 23.9 | 17.7 | 6077 | 6126 | inactive
CG6700 (GeneID 34496) | DRSC25626 | 8.21 | 6.49 | 6441 | 5902 | inactive
CG7091 (GeneID 41590) | DRSC12944 | 1.99 | 0.09 | 6490 | 6427 | inactive
CG7091 (GeneID 41590) | DRSC16197 | 3.93 | 3.69 | 6777 | 6972 | inactive
CG32052 (GeneID 326184) | DRSC10966 | 1.15 | 1.52 | 6240 | 6458 | inactive
CG32052 (GeneID 326184) | DRSC27465 | 2.15 | 1.39 | 6921 | 6601 | active
CG3065 (GeneID 37818) | DRSC24998 | 9.92 | 15.4 | 5779 | 5724 | inactive
CG4842 (GeneID 39817) | DRSC10453 | 1.04 | 4.45 | 6062 | 6022 | inactive
CG31676 (GeneID 35351) | DRSC02387 | 6.45 | 2.43 | 5919 | 6639 | inactive
Piezo (GeneID 34112) | DRSC03092 | 7.31 | 7.39 | 5989 | 6764 | inactive
CCT2 (GeneID 31838) | DRSC18415 | 1.76 | 11.7 | 4956 | 4987 | inactive
CCT2 (GeneID 31838) | DRSC27831 | 4.88 | 18.7 | 6620 | 6086 | inactive
Smvt (GeneID 43744) | DRSC15426 | – | – | 314 | 396 | inactive
Octbeta1R (GeneID 42652) | DRSC16134 | 2.98 | 11.5 | 1475 | 2045 | inactive
Octbeta1R (GeneID 42652) | DRSC30030 | 2.49 | 10.6 | 6617 | 6590 | inactive
Gpdh3 (GeneID 42624) | DRSC13561 | 4.39 | 3.3 | 6240 | 5729 | inactive
Gpdh3 (GeneID 42624) | DRSC15325 | 4.19 | 0.88 | 6131 | 7191 | inactive
cmb (GeneID 39513) | DRSC09790 | 0.71 | 1.47 | 6583 | 6277 | inactive
cmb (GeneID 39513) | DRSC25444 | 2.14 | 4.26 | 6160 | 6172 | inactive
CG14693 (GeneID 41299) | DRSC14916 | 8.39 | 2.43 | 5935 | 6214 | inactive
a10 (GeneID 39906) | DRSC11319 | 2.21 | 2.08 | 6386 | 6779 | inactive
CG5681 (GeneID 35074) | DRSC02876 | 9.39 | 4.27 | 5932 | 6532 | inactive
CG5681 (GeneID 35074) | DRSC24022 | 1.59 | 6.11 | 6841 | 6318 | inactive
Vmat + CG13330 | DRSC06365 | 17.1 | 17.4 | 6339 | 6452 | inactive
Vmat + CG13330 | DRSC28600 | 16.6 | 18.2 | 5233 | 5015 | inactive
CG32259 (GeneID 317942) | DRSC08082 | 3.2 | 6.81 | 6321 | 5988 | inactive
Fbxl4 (GeneID 32378) | DRSC19805 | 9.13 | 7.27 | 6409 | 6229 | inactive
CG33791 + CG12105 + CG18170 | DRSC08387 | 15.3 | 15.2 | 5287 | 1961 | inactive
CG17786 (GeneID 42879) | DRSC15270 | 8.03 | 3.05 | 4709 | 6460 | inactive
CG17786 (GeneID 42879) | DRSC25378 | 4.1 | 3.21 | 6271 | 6574 | inactive
